Compound potency records, mixed from different reports. Data source: NIAID ChemDB in PubChem.

Common to all: tests in culture; species: Poliovirus; endpoint: EC50

Blank or dashed fields: not listed here.

SMILES	strain	cells	value
N#Cc1c(SCCCBr)nsc1-c1ccccc1	Brunhilde (type 1)	HEP-2	>25 µg/mL
O[C@@H]1[C@@H](OCc2ccccc2)[C@@H](COCc2ccccc2)O[C@H]1n1cnc2cc(Cl)c(Cl)cc21	TYPE 1	HeLa	>10 µg/mL
Nc1nccc2c1ncn2[C@@H]1C[C@H](CO)[C@@H](O)[C@H]1O	TYPE 1	HeLa	>400 µg/mL
Cc1c(C(N)=O)ncn1C1OC(CO)C(O)C1O	TYPE 1		>200 µg/mL
OCCOC(CCO)n1cnc2cc(Cl)c(Cl)cc21	TYPE 1	HeLa	>200 µg/mL
Nc1nccc2c1ncn2[C@@H]1O[C@H](CO)[C@@H](O)[C@H]1O	TYPE 1	HeLa	≥40 µg/mL
Nc1ncnc2c1ncn2[C@@H]1C=C(CO)[C@@H](O)[C@H]1O	TYPE 1	HeLa	>10 µg/mL
CC(C)S(=O)(=O)n1c(N)nc2ccc(/C(=N/O)c3ccccc3)cc21	Brunhilde (type 20)	BSC-1	0.02 µg/mL
O[C@@H]1CC(n2cnc3cc(Cl)c(Cl)cc32)OC[C@@H]1O	TYPE 1	HeLa	>100 µg/mL
N#CCSc1nsc(-c2ccccc2)c1C#N	Brunhilde (type 1)	HEP-2	0.5 µg/mL
Nc1ncnc2c1ccn2[C@@H]1O[C@H](CO)[C@H](O)[C@H]1O	TYPE 1	VERO	≥40 µg/mL
CC(=O)N[C@H]1[C@@H](O[C@@H]2O[C@H](C[C@@H](O)[C@H]3O[C@@H](n4ccc(=O)[nH]c4=O)[C@H](O)[C@@H]3O)[C@H](O)[C@H](O)[C@H]2NC(=O)/C=C/CC(C)C)O[C@H](CO)[C@@H](O)[C@@H]1O	TYPE 1	BSC-1	>0.5 µg/mL
N#Cc1c(N2CCCCC2)nsc1-c1ccccc1	Brunhilde (type 1)	HEP-2	2.5 µg/mL
O=[N+]([O-])c1cc(Cl)c(Cl)cc1[N+](=O)[O-]	TYPE 1	HeLa	>4 µg/mL
CCCSc1nsc(-c2ccccc2)c1C(N)=O	Brunhilde (type 1)	HEP-2	>300 µg/mL
COc1c(-c2ccc(O)c(O)c2)oc2cc(O)cc(O)c2c1=O		VERO	5 µg/mL
CCCSc1nsc(-c2ccccc2)c1C(=O)OC	Brunhilde (type 1)	HEP-2	0.2 µg/mL
NC(=O)c1nc(F)c[nH]c1=O		VERO	4.8 µg/mL
N#Cc1c(SCCCCBr)nsc1-c1ccccc1	Brunhilde (type 1)	HEP-2	>25 µg/mL
OC[C@H]1O[C@@H](n2cnc3cc(Cl)c(Cl)cc32)[C@@H](O)[C@@H]1O	TYPE 1	HeLa	>10 µg/mL

Repeating the first 3 entries:

SMILES | strain | cells | value
N#Cc1c(SCCCBr)nsc1-c1ccccc1 | Brunhilde (type 1) | HEP-2 | >25 µg/mL
O[C@@H]1[C@@H](OCc2ccccc2)[C@@H](COCc2ccccc2)O[C@H]1n1cnc2cc(Cl)c(Cl)cc21 | TYPE 1 | HeLa | >10 µg/mL
Nc1nccc2c1ncn2[C@@H]1C[C@H](CO)[C@@H](O)[C@H]1O | TYPE 1 | HeLa | >400 µg/mL

Rows are shuffled and stem from different studies. ECn is the concentration giving n% inhibition of infection, replication or growth.